# Experimental data reported in patent US20080050354A1, “PROTECTING BIOACTIVE FOOD INGREDIENTS USING MICROORGANISMS HAVING REDUCED METABOLIZING CAPACITY” (COMPAGNIE GERVAIS DANONE, priority 2004, published 2008).
# Sequences of proteins named here, by UniProt entry; tags and fusion partners are left off. A change or cut given only in a name is not applied to a line headed by its entry.
# UniProt P02662: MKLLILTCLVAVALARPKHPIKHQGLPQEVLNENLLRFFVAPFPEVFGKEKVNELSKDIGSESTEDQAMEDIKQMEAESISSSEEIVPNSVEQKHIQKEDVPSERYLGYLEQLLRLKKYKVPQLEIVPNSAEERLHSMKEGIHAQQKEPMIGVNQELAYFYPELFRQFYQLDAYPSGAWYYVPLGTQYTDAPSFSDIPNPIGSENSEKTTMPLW
# Key:
# I-1630 = test: Fermentation of reconstituted milk + Lactium by pure strain; set-up: species or system S. thermophilus
# [1] = tested on: lactic ferment Hansen YC380; test: Fermentation of dairy mix containing peptide ingredient, residual peptides by LC-MS/MS; settings: Lactium 1.5 g/L added before fermentation; fermentation to pH 4.70
substance,measurement,setting,value
"peptide αS1 [91-100]: fragment 91-100 of casein αS1; peptide with relaxing properties contained in the milk protein hydrolyzate Lactium® (Ingredia) (YLGYLEQLLR; UniProt P02662 106-115, looked up, fragment)",% of peptide αS1 [91-100] remaining after fermentation,"I-1630; dairy mix with 1.5 g/L Lactium, strain I-1630, stop at pH 4.7",0.3%
same,consumption of peptide by the strain,I-1630; parent strain I-1630,consumes the peptide
same,bioactive peptide consumed after fermentation,[1],more than 95%
